Results of unrelated studies side by side (data: NIAID ChemDB).

All rows: host cell toxicity; cell line: MT-4; endpoint: CC50

CCn: concentration that lowers growth or viability of the cells by n%. An empty or dashed field is not shown. Rows are shuffled and stem from different studies.

smiles,read by,result
c1cc(CN2CCCNCCNCCCNCC2)ccc1CN1CCCNCCNCCCNCC1,MTT,>5 µM
Cc1cccc(Cc2nc(OC3CCCCC3)[nH]c(=O)c2C)c1,,>330 µM
O=C(c1ccccc1)c1ccc2c(c1)nc1n2C(c2c(F)cccc2F)SC1,,26.7 µM
Cc1ccc(NC(=O)CSc2nc(CC34CC5CC(CC(C5)C3)C4)c(C)c(=O)[nH]2)c([N+](=O)[O-])c1,MTT / absorbance,23.08 µM
CCc1csc(NC(=S)NCCc2ccccn2)n1,,103 µM
Nc1ccn([C@H]2CC[C@@H](CO)O2)c(=O)n1,,232 µM
CC(C)=CCc1c(CCCc2ccc(O)cc2O)cc(O)c(O)c1CC=C(C)C,,9 µg/mL
CCc1c(CC23CC4CC(CC(C4)C2)C3)nc(SCC(=O)Nc2ccc(S(N)(=O)=O)cc2)[nH]c1=O,MTT / absorbance,12.25 µM
COc1ccc2nc3n(c2c1)C(c1c(F)cccc1Cl)SC3,,>373 µM
N#Cc1ccc(Nc2nccc([C@H](O)c3ccccc3Cl)n2)cc1,MTT,25 µM
c1cc(CN2CCCNCCNCCCNCC2)ccc1CN1CCCNCCNCCCNCC1,MTT,>50 µM
CCc1cc(NCc2nc3c(Cl)ccc(Cl)c3o2)c(=O)[nH]c1C,,59 µM
Cc1cn([C@H]2C[C@H](N=[N+]=[N-])[C@@H](COP(=O)(Nc3cc(C(=O)Nc4cc(C(=O)Nc5cc(C(=O)NCCC#N)n(C)c5)n(C)c4)n(C)c3)OC3CCCCC3)O2)c(=O)[nH]c1=O,MTT,73 µM
C=CCN1Cc2cccc3[nH]c(=O)n(c23)C[C@H]1C,,592 µM
Cc1ccnc2c1NC(=O)c1cccnc1N2C1CC1,,156 µM
O=C(c1ccccc1)c1ccc2nc3n(c2c1)C(c1c(F)cccc1Cl)SC3,,1.2 µM
Cc1cn([C@H]2C[C@H](N=[N+]=[N-])[C@@H](COC(=O)NCCSC(=O)OC[C@H]3O[C@@H](n4cc(C)c(=O)[nH]c4=O)C[C@@H]3N=[N+]=[N-])O2)c(=O)[nH]c1=O,MTT,>100 µM
Cc1cn([C@H]2C[C@H](N=[N+]=[N-])[C@@H](COP(=O)(Nc3cc(C(=O)NCCC(=N)N)n(C)c3)OC3CCCCC3)O2)c(=O)[nH]c1=O,MTT,193 µM
CCc1c(CC23CC4CC(CC(C4)C2)C3)nc(SCC(=O)Nc2ccc(C#N)cc2)[nH]c1=O,MTT / absorbance,5.49 µM
CC1=NO[C@@]2(CC[C@H](C)N3C[C@H]2n2cc(C(=O)NCc4ccc(F)cc4F)c(=O)c(OC(=O)N(C)c4ncc(C(=O)N[C@@H](CC(=O)O)C(=O)O)cc4COP(=O)(O)O)c2C3=O)C1,luminescence,50 µM
Cc1cc(C)cc(Cc2cc(=O)[nH]c(OC(C)C)n2)c1,,>367 µM
N#Cc1ccc(Nc2nccc([C@@H](O)c3ccccc3Cl)n2)cc1,MTT,36 µM
COc1c2c(cc(O)c1CC=C(C)C)OCC(c1ccc(O)cc1O)=C2,,10 µg/mL
O=C(c1ccccc1)c1ccc2c(c1)nc1n2C(c2c(F)cccc2Cl)SC1,,26.7 µM
CSc1ccccc1C1CCCN1C(=O)C(CC(C)C)NC(=O)NCc1ccc(N)cc1,ATP / luminescence,40 µM
S=C(NCCc1ccccc1)Nc1nccs1,,380 µM
Cc1cn([C@H]2C=C[C@@H](COC(=O)NCCSC(=O)OC[C@@H]3C=C[C@H](n4cc(C)c(=O)[nH]c4=O)O3)O2)c(=O)[nH]c1=O,MTT,>100 µM
Cc1cc(C)cc(Cc2cc(=O)[nH]c(OC3CCCCC3)n2)c1,,>320 µM
Cc1cccc2c1nc1n2C(c2c(F)cccc2F)SC1,,49.6 µM
Cc1csc(NC(=S)NCCc2c(F)cccc2F)n1,,128 µM
Cc1cn([C@H]2C[C@H](N=[N+]=[N-])[C@@H](CO)O2)c(=O)[nH]c1=O,,>75 µM
CC1=NO[C@@]2(CC[C@H](C)N3C[C@H]2n2cc(C(=O)NCc4ccc(F)cc4F)c(=O)c(OCOC(=O)O[C@@H]4CC[C@H](OP(=O)(O)O)C4)c2C3=O)C1,luminescence,50 µM
CCc1c(CC23CC4CC(CC(C4)C2)C3)nc(SCC(=O)c2ccccc2)[nH]c1=O,MTT / absorbance,20.42 µM
Cn1cc(NC(=O)c2cc(NC(=O)c3cc([N+](=O)[O-])cn3C)cn2C)cc1C(=O)NCCC(=N)N,MTT,55 µM
S=C(NCCc1ccccc1)Nc1ccccn1,,389 µM
CC1=NO[C@@]2(CC[C@H](C)N3C[C@H]2n2cc(C(=O)NCc4ccc(F)cc4F)c(=O)c(OCOC(=O)N(C)c4ncccc4CN(CC(=O)O)C(=O)OCOP(=O)(O)O)c2C3=O)C1,luminescence,10.1 µM
COc1cc2oc(-c3ccc(O)cc3O)cc2c(OC)c1CC=C(C)C,,>50 µg/mL
CC1=NO[C@@]2(CC[C@H](C)N3C[C@H]2n2cc(C(=O)NCc4ccc(F)cc4F)c(=O)c(OCOC(=O)N4CCOC[C@H]4COP(=O)(O)O)c2C3=O)C1,luminescence,50 µM
Fc1ccc2nc3n(c2c1)C(c1c(F)cccc1Cl)SC3,,28.2 µM
COc1nc(Cc2cc(C)cc(C)c2)cc(=O)[nH]1,,>410 µM
CCc1csc(NC(=S)NCCc2c(F)cccc2F)n1,,304 µM
CC1=NO[C@@]2(CC[C@H](C)N3C[C@H]2n2cc(C(=O)NCc4ccc(F)cc4F)c(=O)c(OCOC(=O)OCCC(C)(C)c4c(CC(=O)O)cc(C)cc4OP(=O)(O)O)c2C3=O)C1,luminescence,11.6 µM
Cc1c(CC23CC4CC(CC(C4)C2)C3)nc(SCC(=O)Nc2ccccc2)[nH]c1=O,MTT / absorbance,>295 µM
CC(C)=CCc1c(O)c(CC=C(C)C)c2c(c1O)-c1cc(O)c(O)cc1CC2,,2 µg/mL
Cc1cc(C)cc(Cc2cc(=O)[nH]c(OC3CCCC3)n2)c1,,>335 µM
C=CCN1Cc2cccc3[nH]c(=O)n(c23)CC1C,,612 µM
CCC(C)Oc1nc(Cc2cccc(C)c2)cc(=O)[nH]1,,>367 µM
Cc1cccc2nc3n(c12)C(c1c(F)cccc1Cl)SC3,,25.7 µM
Cc1cccc(Cc2cc(=O)[nH]c(OC3CCCCC3)n2)c1,,>335 µM
Cc1cn([C@H]2C=C[C@@H](COC(=O)NCCSC(=O)OC[C@@H]3CC[C@H](n4cnc5c(=O)[nH]cnc54)O3)O2)c(=O)[nH]c1=O,MTT,>100 µM
Cc1cc(C)cc(Cc2nc(OCC(C)C)[nH]c(=O)c2C)c1,,77 µM
CC1=NO[C@@]2(CC[C@H](C)N3C[C@H]2n2cc(C(=O)NCc4ccc(F)cc4F)c(=O)c(OCOC(=O)N4CCC[C@H]4COP(=O)(O)O)c2C3=O)C1,luminescence,50 µM
CC(C)=CCN1Cc2cc(Cl)cc3[nH]c(=S)n(c23)C[C@@H]1C,,47 µM
Cc1cccc(Cc2nc(OCC(C)C)[nH]c(=O)c2C)c1,,210 µM
Fc1cc2nc3n(c2cc1F)C(c1c(Cl)cccc1Cl)SC3,,17.6 µM

Repeating the final 8 entries:

smiles | read by | result
Cc1cccc2nc3n(c12)C(c1c(F)cccc1Cl)SC3 |  | 25.7 µM
Cc1cccc(Cc2cc(=O)[nH]c(OC3CCCCC3)n2)c1 |  | >335 µM
Cc1cn([C@H]2C=C[C@@H](COC(=O)NCCSC(=O)OC[C@@H]3CC[C@H](n4cnc5c(=O)[nH]cnc54)O3)O2)c(=O)[nH]c1=O | MTT | >100 µM
Cc1cc(C)cc(Cc2nc(OCC(C)C)[nH]c(=O)c2C)c1 |  | 77 µM
CC1=NO[C@@]2(CC[C@H](C)N3C[C@H]2n2cc(C(=O)NCc4ccc(F)cc4F)c(=O)c(OCOC(=O)N4CCC[C@H]4COP(=O)(O)O)c2C3=O)C1 | luminescence | 50 µM
CC(C)=CCN1Cc2cc(Cl)cc3[nH]c(=S)n(c23)C[C@@H]1C |  | 47 µM
Cc1cccc(Cc2nc(OCC(C)C)[nH]c(=O)c2C)c1 |  | 210 µM
Fc1cc2nc3n(c2cc1F)C(c1c(Cl)cccc1Cl)SC3 |  | 17.6 µM